Laboratory results published in patent publication US12606546B2, “Small molecule inhibitors of calcium channel activity and uses thereof” (Arizona Board of Regents on Behalf of the University of …, priority 2020, dated 2026).

System: gp120-injected rats
Experiment: HIV gp120-induced sensory neuropathy, mechanical allodynia
Details: 2 μg/5 μL intrathecal

With `C[C@@H](c1ccccc1)n1nnnc1[C@@H](c1ccsc1)N1CCC(n2c(=O)[nH]c3ccccc32)CC1` the “duration of reversal of mechanical allodynia, gp120” value was 4 h, the “mechanical allodynia, gp120” value was “reversal of mechanical allodynia” and the “time at which reversal of mechanical allodynia was seen, gp120” value was “approximately 60 minutes”.
